The values below come from paper PMC9863987, “Identification of Aryl Polyamines Derivatives as Anti-Trypanosoma cruzi Agents Targeting Iron Superoxide Dismutase” (Pharmaceutics, 2022).

Holding throughout (type): cell-based, Trypanosoma cruzi
Conditions in all cases: vs BZN

The subject of data set [1] is T. cruzi Tulahuen strain epimastigotes. The data set is described as follows: Screening against extracellular epimastigotes, Tulahuen strain (resazurin). On the procedure:
(§1) Three different T. cruzi […] strains—MHOM/Pe/2011/Arequipa, discrete typing unit (DTU) V [26]; IRHOD/CO/2008/SN3, DTU I [27]; TINF/CH/1956/Tulahuen, DTU VI [26]—were grown at 28 °C in Gibco® RPMI 1640 Medium supplemented as previously reported, and used for in vitro screening.
(§2) Trypanocidal activity against epimastigotes was tested as previously reported. In brief, 5 × 10^5 mL^−1 epimastigotes culture medium were treated by adding the compounds in serial dilutions from 100 to 0.2 µM in 96-well plates (200 µL·well^−1) for 48 h. BZN and untreated growth control were also included in triplicate. Later, 20 μL of resazurin sodium salt (Sigma-Aldrich, St. Louis, MO, USA) was added, and the plates were incubated for another 24 h. Finally, the absorbance of the wells was measured at 570/600 nm and related to the control. The trypanocidal activity was expressed as the IC50 (inhibitory concentration 50) value using GraphPad Prism 6 software.

Data set [2] relates to T. cruzi SN3 strain epimastigotes. As to the kind of experiment: Screening against extracellular epimastigotes, SN3 strain (resazurin). On the procedure: as §1, §2
A general note: Alamar Blue is a resazurin reagent that responds to reducing activity.

The test system of data set [3] is T. cruzi Arequipa strain trypomastigotes. The data set is described as follows: Screening against bloodstream trypomastigotes, Arequipa strain (resazurin).
Data set [4] has as its system T. cruzi Arequipa strain amastigotes. The data set is described as follows: Screening against intracellular amastigotes in Vero cells, Arequipa strain (Giemsa counting). On the procedure:
(§3) TINF/CH/1956/Tulahuen, DTU VI [26]—were grown at 28 °C in Gibco® RPMI 1640 Medium supplemented as previously reported, and used for in vitro screening. Trypanocidal activity against amastigotes was tested as previously reported. In brief, bloodstream trypomastigotes (BTs), obtained by cardiac puncture from infected BALB/c mice, were used to infect 1 × 10^4 Vero cells·well^−1 in 24-well plates with rounded coverslips at a multiplicity of infection (MOI) ratio of 10:1. After 24 h of infection, non-internalized trypomastigotes were washed and the infected cells were treated by adding the compounds in serial dilutions from 50 to 0.5 µM in […] for 72 h. BZN and untreated growth controls were also included in triplicate. Later, the number of amastigotes and infected cells were determined in Giemsa stained preparations by analysing 500 host cells randomly distributed in microscopic fields. The trypanocidal activity was expressed as the IC50 using GraphPad Prism 6 software (version 6.07).

In data set [5] the test system is T. cruzi Arequipa strain epimastigotes. As to the kind of experiment: Screening against extracellular epimastigotes, Arequipa strain (resazurin). The procedure:
as §1, §2

The test system of data set [6] is T. cruzi Tulahuen strain amastigotes. As to the kind of experiment: Screening against intracellular amastigotes in Vero cells, Tulahuen strain (Giemsa counting). On the procedure: as §3
The test system of data set [7] is T. cruzi Tulahuen strain trypomastigotes. As to the kind of experiment: Screening against bloodstream trypomastigotes, Tulahuen strain (resazurin).

On to `c1cncc(CNCCN(CCNCc2cccnc2)Cc2ccc3ccccc3c2)c1` [Compound 2], for which the “number of times that compound exceeds the reference drug SI (in brackets)” value (“number” for short) in data set [1] was found to be 1; in data set [2], 3; in data set [3], 1; in data set [4], 1; in data set [5], 3.
Consider `CN(C)c1cccc2c(S(=O)(=O)N(CCNCc3cccnc3)CCNCc3cccnc3)cccc12` [Compound 8], for which the “number” value is reported as 3 in data set [1]; 1 in data set [6]; 2 in data set [2]; 1 in data set [5]; 2 in data set [7].
As for `c1cc2nc(c1)CNCCN(CCNCc1ccc3ccc4ccc(CNCCN5CCNCc6cccc(n6)CNCC5)nc4c3n1)CCNC2` [Compound 15], the “number” value in data set [1] worked out at 14; in data set [6], 12; in data set [2], 18; in data set [3], 63; in data set [4], 27; in data set [5], 21. Moreover, in data set [7], the “number” value is 16.
